Measured values from several laboratories, pooled; numbers as filed in NIAID ChemDB.

All rows: growth or infection tests

An empty or dashed field is not shown. Conditions beyond the fields shown may differ between rows. A number after MIC or MFC names an inhibition level or a share of isolates.

SMILES,conditions,method,strain,read-out,mutations,agent,value
CC(C)N1CCN(c2c(F)cc3c(=O)c(C(=O)O)cn(C4CC4)c3c2Cl)CC1,,,14 strains,MIC50,,Mycobacterium avium complex,2 µg/mL
CC1CN(c2cc3c(cc2F)c(=O)c(C(=O)O)cn3C2CC2)CCN1,,,KD1991 (GYRA D95Y),MIC99,,Mycobacterium smegmatis,2.6 µg/mL
CO[C@H]1/C=C/O[C@@]2(C)Oc3c(C)c(O)c4c(O)c(c(N5CCN(Cc6c(C)cc(C)cc6C)CC5)c(O)c4c3C2=O)NC(=O)/C(C)=C\C=C\[C@H](C)[C@H](O)[C@@H](C)[C@@H](O)[C@@H](C)[C@H](OC(C)=O)[C@@H]1C,,,3350-4,MBC,,Mycobacterium avium,8 µg/mL
O=C(Nc1ccccc1)c1ccccc1OP(=O)(Oc1ccccc1)c1ccccc1,14 d,,My 6509/96,MIC,,Mycobacterium kansasii,500 µM
CCOc1cc(Cc2cnc(N)nc2N)cc(OCC)c1-n1cccc1,,,ATCC 35840,MBC,,Mycobacterium ulcerans,0.5 µg/mL
O=C(Nc1ccc(C(F)(F)F)cc1)c1cc(Br)ccc1OP(=O)(OCc1ccccc1)OCc1ccccc1,7 d,,My 235/80,MIC,,Mycobacterium kansasii,8 µM
CO[C@@H]1C[C@@H](C[C@H]2CC[C@H](C)[C@H]([C@@H](C)C(=O)O)O2)O[C@]2(O[C@](C)([C@H]3CC[C@@](C)([C@@H]4O[C@@H]([C@H]5O[C@@](O)(CO)[C@H](C)C[C@@H]5C)C[C@@H]4C)O3)C[C@H]2C)[C@@H]1C,,resazurin,ATCC BAA-535,MIC,,Mycobacterium marinum,2.5 µg/mL
CC[C@@H](CO)NCCN[C@@H](CC)CO,,,921-5,MBC,,Mycobacterium avium complex,15 µg/mL
O=C1c2cc(Cl)ccc2OP(=O)(c2ccccc2)N1c1ccc(C(F)(F)F)cc1,14 d,,My 235/80,MIC,,Mycobacterium kansasii,8 µM
CCCCCNC(=O)Nc1ccc(S(=O)(=O)Nc2cc(C)on2)cc1,21 d,broth dilution / absorbance,235/80,MIC100,,Mycobacterium kansasii,500 µM
CCN1CCN(c2c(F)cc3c(=O)c(C(=O)O)cn(C4CC4)c3c2OC)CC1,,,KD2003 (GYRA D95G),MIC99,,Mycobacterium smegmatis,1 µg/mL
O=C(Nc1ccc(Br)cc1)c1cc(Cl)ccc1OP(=O)(c1ccccc1)c1ccccc1,14 d,,My 235/80,MIC,,Mycobacterium kansasii,8 µM
CCCCNC(=O)Nc1ccc(S(=O)(=O)Nc2cc(C)on2)cc1,7 d,broth dilution / absorbance,235/80,MIC100,,Mycobacterium kansasii,125 µM
CN[C@@H]1[C@H](O[C@H]2[C@H](O[C@H]3[C@H](O)[C@@H](O)[C@H](N=C(N)N)[C@@H](O)[C@@H]3N=C(N)N)O[C@@H](C)[C@]2(O)C=O)O[C@@H](CO)[C@H](O)[C@H]1O,,,Isolate C-27,MIC,,Mycobacterium avium complex,400 µg/mL
CCNC(=O)Nc1ccc(S(=O)(=O)Nc2cc(C)on2)cc1,7 d,broth dilution / absorbance,235/80,MIC100,,Mycobacterium kansasii,125 µM
C[C@@H]1CN(c2c(F)c(N)c3c(=O)c(C(=O)O)cn(C4CC4)c3c2F)C[C@H](C)N1,,broth dilution,5,MIC,,Mycobacterium avium complex,1 µg/mL
O=C(Nc1ccccc1)c1ccccc1OP(=O)(c1ccccc1)c1ccccc1,14 d,,My 6509/96,MIC,,Mycobacterium kansasii,250 µM
CCC1CN(c2cc3c(cc2F)c(=O)c(C(=O)O)cn3C2CC2)CCN1,,,KD1987 (GYRA A91V),MIC99,,Mycobacterium smegmatis,1.2 µg/mL
NNC(=O)c1ccncc1,14 d,broth dilution / absorbance,235/80,MIC100,,Mycobacterium kansasii,>250 µM
CCC1CN(c2c(F)cc3c(=O)c(C(=O)O)cn(C4CC4)c3c2F)CCN1,,,KD2012 (GYRA G89A),MIC99,,Mycobacterium smegmatis,0.37 µg/mL
CN(C)c1cc(NC(=O)CNC(C)(C)C)c(O)c2c1C[C@H]1C[C@H]3[C@H](N(C)C)C(=O)C(C(N)=O)=C(O)[C@@]3(O)C(=O)C1=C2O,,broth dilution,X30,MIC,,Mycobacterium abscessus,0.25 µg/mL
COc1c(N2CCN(C(C)C)CC2)c(F)cc2c(=O)c(C(=O)O)cn(C3CC3)c12,,,KD1990 (GYRA D95A),MIC99,,Mycobacterium smegmatis,1.2 µg/mL
CCCCCn1cc(/C=N/NC(=S)NN)c2ccccc21,24 h,broth dilution,1173P2,MIC100,,Mycobacterium bovis BCG,>500 µg/mL
CC(C)N1CCN(c2nc3c(cc2F)c(=O)c(C(=O)O)cn3C(C)(C)C)CC1,,,14 strains,MIC50,,Mycobacterium avium complex,1 µg/mL
COc1c(N2CC(C)NC(C)C2)c(F)cc2c(=O)c(C(=O)O)cn(C3CC3)c12,,,KD2008 (GYRA G89C),MIC99,,Mycobacterium smegmatis,0.91 µg/mL
CCCCCn1cc(/C=N/Nc2nncs2)c2ccccc21,24 h,broth dilution,1173P2,MIC100,,Mycobacterium bovis BCG,3.91 µg/mL
O=C(Nc1ccc(C(F)(F)F)cc1)c1cc(Br)ccc1OP(=O)(c1ccccc1)c1ccccc1,14 d,,My 235/80,MIC,,Mycobacterium kansasii,8 µM
CCCCCCNC(=O)Nc1ccc(S(=O)(=O)Nc2cc(C)on2)cc1,14 d,broth dilution / absorbance,235/80,MIC100,,Mycobacterium kansasii,250 µM
CC1CN(c2c(F)cc3c(=O)c(C(=O)O)cn(C4CC4)c3c2F)CCN1,,,KD2012 (GYRA G89A),MIC99,,Mycobacterium smegmatis,0.24 µg/mL
C[C@@H]1CN(c2nc3c(cc2F)c(=O)c(C(=O)O)cn3C(C)(C)C)C[C@H](C)N1,,,14 strains,MIC50,,Mycobacterium avium complex,0.5 µg/mL
COc1cc(Cc2cnc(N)nc2N)cc(OC)c1Br,,,ATCC 19423,MIC,,Mycobacterium ulcerans,4 µg/mL
CNCC1CCN(c2c(F)cc3c(=O)c(C(=O)O)cn(C4CC4)c3c2Br)C1,,,14 strains,MIC50,,Mycobacterium avium complex,≥32 µg/mL
CC[C@H]1OC(=O)[C@H](C)[C@@H](O[C@H]2C[C@@](C)(OC)[C@@H](O)[C@H](C)O2)[C@H](C)[C@@H](O[C@@H]2O[C@H](C)C[C@H](N(C)C)[C@H]2O)[C@](C)(OC)C[C@@H](C)C(=O)[C@H](C)[C@@H](O)[C@]1(C)O,,broth dilution,X1,MIC,,Mycobacterium abscessus,0.25 µg/mL
CO[C@H]1/C=C/O[C@@]2(C)Oc3c(C)c(O)c4c(O)c(c5c(c4c3C2=O)NC2(CCN(CC(C)C)CC2)N=5)=NC(=O)/C(C)=C\C=C\[C@H](C)[C@H](O)[C@@H](C)[C@@H](O)[C@@H](C)[C@H](OC(C)=O)[C@@H]1C,,,52 isolates,MIC90,,Mycobacterium avium complex,1.56 µg/mL
O=C(Nc1ccc(Cl)cc1)c1cc(Cl)ccc1OP(=O)(Oc1ccccc1)c1ccccc1,7 d,,My 235/80,MIC,,Mycobacterium kansasii,4 µM
CCCCCCn1cc(/C=N/NC(=S)NN)c2ccccc21,24 h,broth dilution,1173P2,MIC100,,Mycobacterium bovis BCG,>500 µg/mL
COc1c(N2CCNC(C)C2)c(F)cc2c(=O)c(C(=O)O)cn(C3CC3)c12,,,KD1995 (GYRA D95H),MIC99,,Mycobacterium smegmatis,0.46 µg/mL
CCN1CCN(c2nc3c(cc2F)c(=O)c(C(=O)O)cn3C(C)(C)C)CC1,,,14 strains,MIC50,,Mycobacterium avium complex,1 µg/mL
COc1nc2ccc(Br)cc2cc1[C@@H](c1ccccc1)[C@@](O)(CCN(C)C)c1cccc2ccccc12,,resazurin,,MIC,T523 insertion,Mycobacterium aurum,0.04 µg/mL
CCCn1cc(/C=N/NC(=S)NN)c2ccccc21,24 h,broth dilution,1173P2,MIC100,,Mycobacterium bovis BCG,>500 µg/mL
O=C(O)c1cn(C2CC2)c2c(F)c(N3CCC(O)C3)c(F)cc2c1=O,,,14 strains,MIC90,,Mycobacterium avium complex,8 µg/mL
NNC(=S)N/N=C/c1cn(CC2CC2)c2ccccc12,48 h,broth dilution,1173P2,MIC100,,Mycobacterium bovis BCG,>500 µg/mL
CC1CN(c2cc3c(cc2F)c(=O)c(C(=O)O)cn3C2CC2)CC(C)N1,,,KD2012 (GYRA G89A),MIC99,,Mycobacterium smegmatis,0.63 µg/mL

The last 6 rows once more:

CCN1CCN(c2nc3c(cc2F)c(=O)c(C(=O)O)cn3C(C)(C)C)CC1 ; strain: 14 strains ; read-out: MIC50 ; agent: Mycobacterium avium complex ; value: 1 µg/mL
COc1nc2ccc(Br)cc2cc1[C@@H](c1ccccc1)[C@@](O)(CCN(C)C)c1cccc2ccccc12 ; method: resazurin ; read-out: MIC ; mutations: T523 insertion ; agent: Mycobacterium aurum ; value: 0.04 µg/mL
CCCn1cc(/C=N/NC(=S)NN)c2ccccc21 ; conditions: 24 h ; method: broth dilution ; strain: 1173P2 ; read-out: MIC100 ; agent: Mycobacterium bovis BCG ; value: >500 µg/mL
O=C(O)c1cn(C2CC2)c2c(F)c(N3CCC(O)C3)c(F)cc2c1=O ; strain: 14 strains ; read-out: MIC90 ; agent: Mycobacterium avium complex ; value: 8 µg/mL
NNC(=S)N/N=C/c1cn(CC2CC2)c2ccccc12 ; conditions: 48 h ; method: broth dilution ; strain: 1173P2 ; read-out: MIC100 ; agent: Mycobacterium bovis BCG ; value: >500 µg/mL
CC1CN(c2cc3c(cc2F)c(=O)c(C(=O)O)cn3C2CC2)CC(C)N1 ; strain: KD2012 (GYRA G89A) ; read-out: MIC99 ; agent: Mycobacterium smegmatis ; value: 0.63 µg/mL